Consider 14 compounds from PubChem BioAssay AID504834 (National Center for Advancing Translational Sciences (NCATS), 2011).

The list shows a part of the results, in another mix than the full data. Results filed as inconclusive are left out. Active and inactive are the calls of the source. Calls come from the whole dose curve; as a rule, active = well fitted inhibition curve with a large enough effect; inconclusive = small, poorly fitted or top-dose-only effect, or another doubt; inactive = no such curve, though single readings can be large or run the other way.
Potency is the fitted concentration of half-maximal effect.

The assay can be described thus: Primary qHTS for delayed death inhibitors of the malarial parasite plastid, 96 hour incubation. The conditions noted are these: P. falciparum luciferase reporter growth; series mostly up to 28.7 µM. (In qHTS, concentration-response curves come from the screen itself.)
On to `CP(=O)(Nc1ccc(SC(F)(F)F)cc1)Oc1ccccc1` (centres undefined), for which the Potency was active: 1.31 µM.

`CCCOc1ccc(NP(C)(=O)Oc2ccc(Cl)cc2)cc1` (centres undefined): the Potency was active: 1.31 µM.

`CN(C)C1(CNC(=O)c2ccc(S(C)(=O)=O)cc2)CCCCC1`: the Potency entry was “inactive”.

As for `C=C(C=O)CC1CC(O)[C@]2(C)OC3C[C@@H]4OC5C[C@]6(C)O[C@]7(C)CCC8OC9C[C@]%10(C)OC(/C(C)=C\CO)C(O)CC%10OC9CC(C)C8OC7CC6O[C@]5(C)C/C=C\C4OC3CC2O1` (some centres undefined), the Potency is active: 9.28 µM.

As to `CCN(CC)CCCOC(=O)C(O)(c1ccccc1)c1ccccc1`, the Potency result is “inactive”.

Take `CP(=O)(NC(=O)Nc1ccccc1)Oc1ccccc1` (centres undefined): the Potency is active: 7.38 µM.

Regarding `CP(=O)(Nc1ccc(Cl)cc1)Oc1ccc(F)cc1` (centres undefined), the Potency is active: 0.586 µM.

In the case of `O=C(OCCCN1CCCC1)C(O)(c1ccccc1)C1CCCCC1` (centres undefined), the Potency result was “inactive”.

For `CP(=O)(Nc1ccc(Cl)cc1Cl)Oc1ccccc1` (centres undefined), the Potency is active: 2.08 µM.

On to `Cc1cc(C)cc(OP(C)(=O)Nc2cccc(C(F)(F)F)c2)c1` (centres undefined), for which the Potency is active: 8.28 µM.

In the case of `COc1ccccc1OP(C)(=O)Nc1ccc(C)c(C)c1` (centres undefined), the Potency was active: 4.65 µM.

In the case of `CC(C)c1ccc(OP(C)(=O)Nc2ccc(SC(F)(F)F)cc2)cc1` (centres undefined), the Potency was active: 4.65 µM.

As for `O=[N+]([O-])c1ccc(OP2(=O)COCCO2)cc1` (centres undefined), the Potency entry is “inactive”.

On to `CN(C)C1(CNC(=O)c2ccc(Cl)c(S(N)(=O)=O)c2)CCCCC1`, for which the Potency entry is “inactive”.
